Anti-infective test results gathered from many reports (values: NIAID ChemDB through PubChem).

Shared fields: growth or infection tests; agent: Hepatitis B virus; measure: EC50

An empty or dashed field is not shown.

{"smiles": "CCNC(=O)C(=O)N1CCC(NS(=O)(=O)c2cn(/C=C/F)c(C(=O)Nc3cc(F)cc(Cl)c3)c2F)CC1", "cell line": "HepAD38 cells", "method": "PCR", "value": "<0.1 µM"}
{"smiles": "Cc1cc(NC(=O)c2c3c(cn2C)S(=O)(=O)N[C@H]2CN(C(=O)C(=O)N[C@@H](C)C(F)(F)F)C[C@H]2CO3)ccc1F", "cell line": "HepAD38", "method": "PCR", "value": "<0.5 µM"}
{"smiles": "Cn1cc(S(=O)(=O)Nc2ccc3c(C(=O)Nc4ccc(F)c(Cl)c4)n(C)nc3c2)cn1", "cell line": "HepAD38", "method": "PCR / entry", "value": "<100 µM"}
{"smiles": "C#CC1(NC(=O)C(=O)c2c(C)c(C(=O)Nc3ccc(F)c(C#N)c3)n(C)c2C)COC1", "cell line": "HepG2.2.15", "method": "PCR", "value": "<0.001 µM"}
{"smiles": "Cn1nc2cc(NS(=O)(=O)c3ccn(-c4ncccn4)n3)ccc2c1C(=O)Nc1ccc(F)c(Cl)c1", "cell line": "HepAD38", "method": "PCR", "value": "<100 µM"}
{"smiles": "CCNC(=O)C(=O)N1CCC(NS(=O)(=O)c2c(Cl)c(C(=O)Nc3cc(F)c(F)c(F)c3)n3c2CCC3)CC1", "cell line": "HepAD38 cells", "method": "PCR", "value": "<0.1 µM"}
{"smiles": "CNC(=O)C(=O)N1CC2COc3c(cn(C)c3C(=O)Nc3cc(F)c(F)c(F)c3)S(=O)(=O)NC2C1", "cell line": "HepAD38", "method": "PCR", "value": "<0.5 µM"}
{"smiles": "C#C[C@H](NC(=O)C(=O)c1c(C)c(C(=O)Nc2ccc(F)c(C#N)c2)n(C)c1C)C1CC1", "cell line": "HepG2.2.15", "method": "PCR", "value": "<0.001 µM"}
{"smiles": "Cn1nc2cc(NS(=O)(=O)c3ccn(CC4CN(C(=O)OC(C)(C)C)C4)n3)ccc2c1C(=O)Nc1ccc(F)c(Cl)c1", "cell line": "HepAD38", "method": "PCR", "value": "100–1000 µM"}
{"smiles": "C#C[C@](CO)(NC(=O)C(=O)c1c(C)c(C(=O)Nc2ccc(F)c(C(F)(F)F)c2)n(C)c1C)C(F)(F)F", "cell line": "HepG2.2.15", "method": "PCR", "value": "0.01–0.099 µM"}
{"smiles": "COC(=O)C1=C(CN2CC(F)(F)[C@@H]3[C@H]2CON3C[C@](C)(O)C(C)(C)C(=O)O)NC(c2nccs2)=N[C@H]1c1ccc(F)c(F)c1C", "cell line": "HepG2.2.15", "method": "PCR", "value": "0.044 µM"}
{"smiles": "C#CCNC(=O)C(=O)c1c(C)c(C(=O)Nc2ccnc(Br)c2F)n(C)c1C", "cell line": "HepG2.2.15", "method": "PCR", "value": "0.001–0.0099 µM"}
{"smiles": "COc1ccc(CNC(=O)C2C3CN(C(=O)c4ccc(Br)c(Cl)c4)CCN3CN2c2ccc(C#N)cc2)c(C)c1", "cell line": "HepG2.117", "method": "PCR", "value": "0.5–5 µM"}
{"smiles": "Cc1nn(C)cc1S(=O)(=O)Nc1ccc2c(C(=O)Nc3ccc(F)c(Cl)c3)n(C)nc2c1", "cell line": "HepAD38", "method": "PCR", "value": "100–1000 µM"}
{"smiles": "COc1ccc(-n2c(C(=O)N[C@H]3CCc4cc(OC)ccc43)c3n(c2=O)CCN(C(=O)c2ccc(Br)c(Cl)c2)C3)cc1", "cell line": "HepG2.117", "method": "PCR", "value": "0.1–0.5 µM"}
{"smiles": "Cn1nc2cc(NS(=O)(=O)C3CC(O)C3)ccc2c1C(=O)Nc1ccc(F)c(Cl)c1", "cell line": "HepAD38", "method": "PCR", "value": "100–1000 µM"}
{"smiles": "C[C@@H](NC(=O)c1c2n(c(=O)n1-c1ccc(OC3CC3)cc1)CCN(C(=O)c1ccc(Br)c(Cl)c1)C2)c1ccc(C#N)cc1F", "cell line": "HepG2.117", "method": "PCR", "value": "0.5–5 µM"}
{"smiles": "Cn1cc(S(=O)(=O)N[C@@H]2CCN(S(=O)(=O)C3(C)CC3)C2)c(F)c1C(=O)Nc1ccc(F)c(F)c1", "cell line": "HepAD38 cells", "method": "PCR", "value": "<0.1 µM"}
{"smiles": "COC(=O)C1=C(CN2CC(F)(F)[C@@H]3[C@H]2CON3C[C@@H](F)C(C)(C)C(=O)O)NC(c2nccs2)=N[C@H]1c1ccc(F)c(F)c1C", "cell line": "HepG2.2.15", "method": "PCR", "value": "0.01 µM"}
{"smiles": "O=C(NCc1cccc2[nH]cnc12)c1c2n(c(=O)n1-c1ccc(OC3CC3)cc1)CCN(C(=O)c1ccc(Br)c(Cl)c1)C2", "cell line": "HepG2.117", "method": "PCR", "value": "0.1–0.5 µM"}
{"smiles": "CCOC(=O)C1=C(CN2CC(F)(F)[C@@H]3[C@H]2CON3C[C@@H](F)C(C)(C)C(=O)O)NC(c2nccs2)=N[C@H]1c1ccc(F)c(F)c1F", "cell line": "HepG2.2.15", "method": "PCR", "value": "0.012 µM"}
{"smiles": "CNC(=O)C(=O)N1CCC2CC2(NS(=O)(=O)c2cn(C)c(C(=O)Nc3cc(F)c(F)c(F)c3)c2F)C1", "cell line": "HepAD38 cells", "method": "PCR", "value": "<0.1 µM"}
{"smiles": "COC(=O)C1=C(CN2CC(F)(F)[C@H]3[C@@H]2CCN3C[C@@H](O)C(C)(C)C(=O)O)NC(c2nccs2)=N[C@H]1c1cccc(F)c1F", "cell line": "HepG2.2.15", "method": "PCR", "value": "0.035 µM"}
{"smiles": "Cn1ccnc1S(=O)(=O)Nc1ccc2c(C(=O)Nc3ccc(F)c(Cl)c3)n(C)nc2c1", "cell line": "HepAD38", "method": "PCR", "value": ">1000 µM"}
{"smiles": "O=C(NCc1cccc2nccnc12)c1c2n(c(=O)n1-c1ccc(OCC(F)(F)F)cc1)CCN(C(=O)c1ccc(Br)c(Cl)c1)C2", "cell line": "HepG2.117", "method": "PCR", "value": "<0.1 µM"}
{"smiles": "Cc1cc(NC(=O)c2c3c(cn2C)S(=O)(=O)N[C@H]2CN(C(=O)C(=O)N[C@H](C)C(F)(F)F)C[C@H]2CO3)ccc1F", "mutations": "T33N", "cell line": "HepG2", "method": "PCR", "value": "0.04688 µM"}
{"smiles": "O=C(NCc1ccccc1)c1c2n(c(=O)n1-c1ccc(N3CCC3)cc1)CCN(C(=O)c1ccc(Br)c(Cl)c1)C2", "cell line": "HepG2.117", "method": "PCR", "value": "0.1–0.5 µM"}
{"smiles": "Cn1nc2cc(NCS(=O)(=O)N(CCO)CCO)ccc2c1C(=O)Nc1ccc(F)c(Cl)c1", "cell line": "HepAD38", "method": "PCR", "value": "100–1000 µM"}
{"smiles": "CCOC(=O)C1=C(CN2CC(F)(F)[C@H]3[C@@H]2CCN3CC[C@](C)(O)C(=O)O)NC(c2nccs2)=N[C@H]1c1ccc(F)c(F)c1F", "cell line": "HepG2.2.15", "method": "PCR", "value": "0.043 µM"}
{"smiles": "Cc1cc(NC(=O)c2c3c(cn2C)S(=O)(=O)NC2CCN(C(=O)C(=O)N4CC(F)(F)C4)CC2CO3)ccc1F", "cell line": "HepAD38", "method": "PCR", "value": "<0.5 µM"}
{"smiles": "CCC(O)CNC(=O)c1ccc2c(C(=O)Nc3ccc(F)c(Cl)c3)n(C)nc2c1", "cell line": "HepAD38", "method": "PCR", "value": ">1000 µM"}
{"smiles": "CCOC(=O)C1=C(CN2CC(F)(F)[C@@H]3[C@H]2CON3CCC(O)C(C)(C)C(=O)O)NC(c2nccs2)=N[C@H]1c1cccc(F)c1C", "cell line": "HepG2.2.15", "method": "PCR", "value": "0.024 µM"}

For reference, 3 entries again:

smiles,mutations,cell line,method,value
CCOC(=O)C1=C(CN2CC(F)(F)[C@@H]3[C@H]2CON3CCC(O)C(C)(C)C(=O)O)NC(c2nccs2)=N[C@H]1c1cccc(F)c1C,-,HepG2.2.15,PCR,0.024 µM
Cn1cc(S(=O)(=O)Nc2ccc3c(C(=O)Nc4ccc(F)c(Cl)c4)n(C)nc3c2)cn1,-,HepAD38,PCR / entry,<100 µM
CCC(O)CNC(=O)c1ccc2c(C(=O)Nc3ccc(F)c(Cl)c3)n(C)nc2c1,-,HepAD38,PCR,>1000 µM

Conditions beyond the fields shown may differ between rows. Two numbers with a dash give a range or band. ECn: concentration that inhibits the pathogen or its effect by n%.